In publication PMC4805248:

How the values were obtained:
[1] = molecular target: T1, PgMntR D19M (Porphyromonas gingivalis W50) (UniProt Q7MVL0); experiment: EMSA; details: 800 nM protein, EMSA: 1 nM biotinylated DNA, 700-1000 nM protein, 90 mM Bis-Tris borate pH 6.8 (1 mM TCEP, 5 mM DTT) or 10 mM Tris-Cl pH 7.5 or Tris-acetate pH 6.8, 50 mM KCl, recombinant protein, residues 1-310, protein details: His-tag cleaved, N-terminal GPG left, label: 5' biotin on both primers, probe letters rebuilt from the primers and the genome
T1 sequence (looked up): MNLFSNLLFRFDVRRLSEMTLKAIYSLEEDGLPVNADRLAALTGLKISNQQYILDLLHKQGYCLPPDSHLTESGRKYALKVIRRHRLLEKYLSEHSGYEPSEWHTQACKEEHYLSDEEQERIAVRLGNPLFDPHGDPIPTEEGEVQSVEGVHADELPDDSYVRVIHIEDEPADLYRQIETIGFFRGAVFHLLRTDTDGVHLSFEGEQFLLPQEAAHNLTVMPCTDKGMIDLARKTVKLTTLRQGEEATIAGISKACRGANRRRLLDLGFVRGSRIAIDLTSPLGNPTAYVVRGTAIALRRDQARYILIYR

[2] = molecular target: T2, PgMntR C108E (Porphyromonas gingivalis W50) (UniProt Q7MVL0); experiment: EMSA; details: 800 nM protein, EMSA: 1 nM biotinylated DNA, 700-1000 nM protein, 90 mM Bis-Tris borate pH 6.8 (1 mM TCEP, 5 mM DTT) or 10 mM Tris-Cl pH 7.5 or Tris-acetate pH 6.8, 50 mM KCl, recombinant protein, residues 1-310, protein details: His-tag cleaved, N-terminal GPG left, label: 5' biotin on both primers, probe letters rebuilt from the primers and the genome
T2 sequence (looked up): T1 sequence (looked up) with M19D, C108E

Measured: binding result

GCTTCTATAACTTCTATTATTACCGAAGTGTTCGGTCTGTTGGCCTGTGGCACAACGTTTTCAGTATGACAAAGGTGCTTATTTTATCGAAGAATCCGTCAAACTGCAGGCTCTCCTGTGCTATTTTACCTGCATTGAGGTATCCGGAGGCGGAGTTGCTTCTACAAGATCGTTTCCACTTTCTTCCCTGACTATTCCGGTCATTGACAGACTGAAAAATACGTACCAAAAAAGTTTTCAACAACGAAGATGAGTTTGGAATGATTCCAAATAAGCACCTGAAAGGAAGACGATTTCGAAGTCAAAAAGGCAAGAAAAGGAAGTTTTTCAGGTAGAAACATGACTTTTGGAAAGAAGATAACGATTTATATACAAATCATTTACG (double strand) [P1 (promoter region upstream of pgmntR/FB2 operon)]
binds: [1]; Mn2+ | [1]; no metal | [2]; Mn2+ | [2]; no metal

Where a chain is given by its changes, count along the chain named. Tags and fusion partners may be left off the protein sequences shown.
